Reference: paper PMC3920255 (Toxins, 2013)
Values after ≈ are worked out from the molar mass of the structure shown.

Test system: primary cultured rat hepatocytes

Row | SMILES | IC50 (concentration showing 50% cell viability) [mg/L]
1 | C/C=C1/NC(=O)CC[C@H](C(=O)O)NC(=O)[C@@H](C)[C@H](/C=C/C(C)=C/[C@H](C)[C@H](Cc2ccccc2)OC)NC(=O)[C@H](CCCNC(=N)N)NC(=O)C[C@H](C(=O)O)NC(=O)[C@H](CCCNC(=N)N)NC(=O)[C@@H](C)NC1=O | 4.95 (≈ 4.83 µM)
2 | C=C1C(=O)N[C@H](C)C(=O)N[C@@H](CCCNC(=N)N)C(=O)N[C@@H](C(=O)O)CC(=O)N[C@@H](CCCNC(=N)N)C(=O)N[C@@H](/C=C/C(C)=C/[C@H](C)[C@H](Cc2ccccc2)OC)[C@H](C)C(=O)N[C@@H](C(=O)O)CCC(=O)N1C | >10
